Tested on: rice seedling emergence
Experiment: rice seed treatment
Type: in vivo
Conditions: difference highest to lowest percent change

SMILES: O=C1[C@H]2CC=CC[C@H]2C(=O)N1SC(Cl)(Cl)C(Cl)Cl (relative stereo)
- Performance Consistency: 47.8

From patent publication US4602011A, “Antimicrobial compositions and methods of using same” (Chapman Chemical Company, priority 1982, dated 1986)
